Reference: PubChem BioAssay AID504761 (Drosophila RNAi Screening Center, 2011)
Purpose: 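Genome-wide fly cell screen for genes dengue virus requires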 (primary screen). System: D.Mel-2 cells from Drosophila. Knock-down reagent: long dsRNA against Drosophila genes. Conditions: infection with dengue virus type 2; dose and infection time not stated. Measurement: 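Cells stained for dengue envelope protein and imaged; percent of infected cells per well on duplicate plates, ranked by infection, with stained nuclei counted for cell number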. Scale: infection score: higher = more virus-infected cells; cell count: higher = more cells in the well. Rule for the call: 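Low infection ranks in the two replicates (chance level up to 0.065) followed by a retest with a 1.5-fold or larger significant decrease, p below 0.05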. Calls: active = confirmed: knock-down lowers infection; inactive = not picked or not confirmed.
The deposit covers about 22,000 reagents; below is an unselected part of those with a known target gene and a result. In the full data, 116 (0.52%) are marked active. 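Calls depend on retest data that are not deposited; infection was ranked per plate without normalising between plates; the unit of the infection score is not given.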 Raw values vary from plate to plate and are shown uncorrected. Entries without a mark were called inactive. The numbers tell different reagents against one gene apart. The record does not give: the amount of reagent, the time to read-out.

Gene	reagent	infection score, replicate 1	infection score, replicate 2	cell count, replicate 1	cell count, replicate 2
mesh (GeneID 43688)	1	2.66	11.6	6342	7135
mesh (GeneID 43688)	2	4.17	5.84	6617	1336
mesh (GeneID 43688)	3	8.88	0.63	6395	6460
mRpL51 (GeneID 34186)	1	21.9	9.88	4392	2672
mRpL51 (GeneID 34186)	2	16.6	8.47	6055	5999
Pitslre (GeneID 40292)	1	19.4	36.4	3042	3048
Pitslre (GeneID 40292)	2	12	42.9	6271	5297
Trm7-34 (GeneID 42508)	1	6.67	3.03	1095	6407
pdm3 (GeneID 35813)	1	6.17	13.2	6304	6278
pdm3 (GeneID 35813)	2	1.43	4.46	5870	6161
pdm3 (GeneID 35813)	3	27.2	16.1	6193	1472
pdm3 (GeneID 35813)	4	23	7.56	5893	6003
Klp31E (GeneID 34422)	1	12.7	18.9	6468	6071
CG15605 (GeneID 36933)	1	9.25	20.8	6520	4465
CG1607 (GeneID 43707)	1	1.5	2.52	6070	5953
CG1607 (GeneID 43707)	2	6.16	3.99	2175	4090
Rrp45 (GeneID 32665)	1	11.8	19.7	4282	5003
Rrp45 (GeneID 32665)	2			298	342
CG17571 (GeneID 35409)	1	0.53	0.98	6411	6237
CG17571 (GeneID 35409)	2	2.06	2.95	6833	6703
CG17571 (GeneID 35409)	3	9.02	6.47	5779	6087

Records listed so far whose gene name starts with C or c (6):
Gene	reagent	infection score, replicate 1	infection score, replicate 2	cell count, replicate 1	cell count, replicate 2
CG15605 (GeneID 36933)	1	9.25	20.8	6520	4465
CG1607 (GeneID 43707)	1	1.5	2.52	6070	5953
CG1607 (GeneID 43707)	2	6.16	3.99	2175	4090
CG17571 (GeneID 35409)	1	0.53	0.98	6411	6237
CG17571 (GeneID 35409)	2	2.06	2.95	6833	6703
CG17571 (GeneID 35409)	3	9.02	6.47	5779	6087

Additional records follow:
Gene	reagent	infection score, replicate 1	infection score, replicate 2	cell count, replicate 1	cell count, replicate 2
kek3 (GeneID 34912)	1	2.42	10.9	6233	6672
kek3 (GeneID 34912)	2	2.26	0.79	6190	6858
kek3 (GeneID 34912)	3	4.73	4.5	5754	5868
CG11456 (GeneID 40309)	1	11.3	5.57	5691	6388
RpS21 (GeneID 33487)	1	3.11	5.89	6213	5844
RpS21 (GeneID 33487)	2	4.1	14.5	634	1603
Swt1 (GeneID 32788)	1	1.44	1.18	6620	6680
CG6362 (GeneID 37032)	1	15.1	19.3	6075	7078
CG6362 (GeneID 37032)	2	5.74	1.52	5925	5774
drongo (GeneID 33263)	1	1.85	2.47	5884	6328
drongo (GeneID 33263)	2	4.44	2.67	6397	5665
Spn38F (GeneID 49806)	1	2.47	1.57	6426	6632
Spn38F (GeneID 49806)	2	6.5	5.8	5982	7313
CG5188 (GeneID 34428)	1	1.86	5.13	6169	6203
fzr2 (GeneID 37808)	1	19.3	31.8	6086	4318
CG8372 (GeneID 34121)	1	2.06	9.87	5969	5592
Hsdl2 (GeneID 43325)	1	2.69	6.72	6320	6597
Hsdl2 (GeneID 43325)	2	11.9	15.1	6581	6655
Arp3 (GeneID 38898)	1	12.2	10.6	5097	5719
Arp3 (GeneID 38898)	2	0.26	16.8	380	1514
Snoo (GeneID 5740414)	1	3.46	1.14	6423	6465
Snoo (GeneID 5740414)	2	4.81	2.05	5847	6396
CG15262 (GeneID 34901)	1	0.57 (active)	0.76	6350	7066
CG10904 (GeneID 37817)	1		5.51	405	2159
Gar1 (GeneID 37397)	1	14.8	7.42	3033	1253
Gar1 (GeneID 37397)	2	3.57	12.2	5682	4647
dan (GeneID 43023)	1	3.11	4.12	6530	6016
dan (GeneID 43023)	2	16.1	6.12	5004	980
CG13403 (GeneID 32366)	1	4.4	5.17	6382	6516
CG13403 (GeneID 32366)	2	2.87	1.71	6560	6426
Chd3 (GeneID 40111)	1	3.84	4.31	6458	6543
Chd3 (GeneID 40111)	2	6.65	3.28	5611	6135
CG12824 (GeneID 35727)	1	3.49	15.8	6479	4896
CG13982 (GeneID 33895)	1	3.61	1.89	5894	5834
Tim9a (GeneID 32294)	1	7.74	6.34	5765	3074
CalpA (GeneID 37232)	1	2.25	1.11	6588	6763
Uba2 (GeneID 44496)	1	2.17	0.78	5296	5355
